In ChEMBL document CHEMBL3817772, “Design, Synthesis, and Biological Evaluations of Hydroxypyridonecarboxylic Acids as Inhibitors of HIV Reverse Transcriptase Associated RNase H” (J Med Chem, 2016):
pIC50: −log10 of the molar value.

Chains of the proteins cited; added tags and fusions are not shown.
UniProt Q7ZJM1, entry or part of it C280S/F185K: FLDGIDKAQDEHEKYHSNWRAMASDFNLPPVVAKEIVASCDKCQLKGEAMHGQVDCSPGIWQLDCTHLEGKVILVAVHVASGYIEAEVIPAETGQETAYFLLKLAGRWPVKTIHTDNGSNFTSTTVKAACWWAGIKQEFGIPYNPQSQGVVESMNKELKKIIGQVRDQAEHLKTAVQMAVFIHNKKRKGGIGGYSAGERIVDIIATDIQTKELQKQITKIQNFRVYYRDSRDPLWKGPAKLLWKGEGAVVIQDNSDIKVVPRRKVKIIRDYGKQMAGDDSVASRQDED

These compounds were tested against Human immunodeficiency virus type 1 integrase (Human immunodeficiency virus 1, UniProt Q7ZJM1, C280S/F185K) (assay: Inhibition of full-length HIV-1 integrase F185K/C280S double mutant strand transfer activity expressed in Escherichia coli BL21(DE3) using oligo DNA as substrate preincubated for 10 mins followed by substrate addition incubated for 30 mins by plate reader analysis).

| Compound | pIC50 |
| --- | --- |
| O=C(O)c1cn(Cc2ccc(-c3cnc4ccccc4c3)cc2)cc(O)c1=O | 4.80 |
| O=C(O)c1cn(Cc2ccc(Cl)cc2)cc(O)c1=O | 4.17 |
| COc1ccc(Cn2cc(O)c(=O)c(C(=O)O)c2)cc1 | < 4.00 |
| O=C(O)c1cn(Cc2cccc(C(F)(F)F)c2)cc(O)c1=O | < 4.00 |
| O=C(O)c1cn(Cc2cccc3ccccc23)cc(O)c1=O | 4.64 |
| O=C(O)c1cn(Cc2ccc(-c3cccnc3)cc2)cc(O)c1=O | 4.46 |
